Assay results taken from publication PMC11602501 (Frontiers in Immunology, 2024).

B1: PGT151 IgG (antibody, V domains shown)
VH: RVQLVESGGGVVQPGKSVRLSCVVSDFPFSKYPMYWVRQAPGKGLEWVAAISGDAWHVVYSNSVQGRFLVSRDNVKNTLYLEMNSLKIEDTAVYRCARMFQESGPPRLDRWSGRNYYYYSGMDVWGQGTTVTVSS
VL: DIVMTQTPLSLSVTPGQPASISCKSSESLRQSNGKTSLYWYRQKPGQSPQLLVFEVSNRFSGVSDRFVGSGSGTDFTLRISRVEAEDVGFYYCMQSKDFPLTFGGGTKVDLK
notes: source: Expi293, transfected, purified (protein A)
B2: N123-VRC34.01 IgG (antibody, V domains shown)
VH: QEVLVQSGAEVKKPGASVKVSCRAFGYTFTGNALHWVRQAPGQGLEWLGWINPHSGDTTTSQKFQGRVYMTRDKSINTAFLDVTRLTSDDTGIYYCARDKYYGNEAVGMDVWGQGTSVTVSS
VL: IQLTQSPSFLSASVGDKVTITCRASQGVRNELAWYQQKPGKAPNLLIYYASTLQSGVPSRFSATGSGTHFTLTVSSLQPEDFATYFCQHMSSYPLTFGGGTKVEIK
notes: as for B1
B3: vFP16.02 IgG (antibody, V domains shown)
VH: QVQLLQSGAELVRPGASVTLSCKASGYAFSDYEIHWVKQTPVRGLDWIGAFDPKSGASASNQKVKGRAILTADKSSSTAYMELRSLTSEDSAVYYCTRLRYFGYFDVWGTGTTVTVSS
VL: DVLMTQTPLSLPVSLGGQASISCRSSQSVVYSDGDTYLEWYLQKPGQSPKLLIYKVSRRFSGVPDRFSGSGSGTDFTLKISRVETEDLGVYYCFQGSHVPYTFGGGTKLEIK
notes: as for B1

Target: T1, HIV-1 fusion peptide FP15 (Env residues 512-526, most common sequence) (HIV-1 Env fusion peptide 512-526, most …)
T1 construct: source: peptide microarray (PEPperPRINT)
T1 chain: AVGIGAVFLGFLGAA
Test: peptide or protein array
Settings: both partners purified
B1: binds.
B2: binds.
B3: binds.
